Measurements published in paper PMC4981971, “Bacillus anthracis S-layer protein BslA binds to extracellular matrix by interacting with laminin” (2016).

Target: laminin (mouse EHS laminin) (mouse)
Test: SPR

BslA(260–652), recombinant truncated Bacillus anthracis S-layer protein A (domain or fragment)
Kd: 3.17 nM | koff: 0.000555 s⁻¹ | kon: 175000 M⁻¹ s⁻¹
